In patent publication US20230233533A1, “COMPOSITIONS, METHODS OF TREATING AND PREVENTING FUNGAL INFECTIONS, AND METHODS OF INHIBITING PRP8 INTEIN EXPRESSION” (Health Research, Inc., priority 2020, published 2023):
Several values for one entry are separate records, joined by “and”; a condition that tells them apart may be missing. Equal values may be shown once.

Test system: C. neoformans H99 strain
Experiment: Fungal susceptibility test, broth microdilution MIC
Assay type: cell-based, Cryptococcus neoformans
Conditions: CC50 A549 / MIC C. neoformans
Experimental: Fungal susceptibility test—The fungal susceptibility test was carried out with a compound concentration series as described. […] The broth microdilution method was used to determine the compound MIC values against C. neoformans.
Fungal susceptibility test—The fungal susceptibility test was carried out with a compound concentration series as described. […] Microbes. Infect. […] The broth microdilution method was used to determine the compound MIC values against C. neoformans.

Row | Molecule | TI, therapeutic index (CC50/MIC)
1 | 5-((4-Chlorophenyl)sulfonyl)-N-(6-fluoropyridin-3-yl)-1,2,3-thiadiazole-4-carboxamide [JMX0581] | 118
2 | 5-((4-Chlorophenyl)thio)-N-(6-fluoropyridin-3-yl)-1,2,3-thiadiazole-4-carboxamide [JMX0580] | <0.3
3 | O=C(Nc1ccc(F)cc1F)c1nnsc1S(=O)(=O)c1ccc(Cl)cc1 [6G-319S, 5-((4-Chlorophenyl)sulfonyl)-N-(2,4-difluorophenyl)-1,2,3-thiadiazole-4-carboxamide] | 35
4 | O=C(Nc1ccc(F)cc1F)c1ncsc1S(=O)(=O)c1ccc(Cl)cc1 [JMX0515, 5-((4-Chlorophenyl)sulfonyl)-N-(2,4-difluorophenyl)thiazole-4-carboxamide] | <2.1
5 | O=C(Nc1ccccc1F)c1ncsc1S(=O)(=O)c1ccc(Cl)cc1 [JMX0516, 5-((4-Chlorophenyl)sulfonyl)-N-(2-fluorophenyl)thiazole-4-carboxamide] | <1.4
6 | O=C(Nc1cccc(F)c1)c1ncsc1S(=O)(=O)c1ccc(Cl)cc1 [JMX0517, 5-((4-Chlorophenyl)sulfonyl)-N-(3-fluorophenyl)thiazole-4-carboxamide] | <1.6
7 | O=C(Nc1ccc(Cl)cc1)c1ncsc1S(=O)(=O)c1ccc(Cl)cc1 [JMX0518, N-(4-Chlorophenyl)-5-((4-chlorophenyl)sulfonyl)thiazole-4-carboxamide] | 1.1
8 | O=C(Nc1ccc(Cl)cc1Cl)c1ncsc1S(=O)(=O)c1ccc(Cl)cc1 [JMX0519, 5-((4-Chlorophenyl)sulfonyl)-N-(2,4-dichlorophenyl)thiazole-4-carboxamide] | <2.4
9 | O=C(Nc1ccc(F)c(F)c1)c1ncsc1S(=O)(=O)c1ccc(Cl)cc1 [JMX0520, 5-((4-Chlorophenyl)sulfonyl)-N-(3,4-difluorophenyl)thiazole-4-carboxamide] | <0.8
10 | O=C(Nc1ccc(C(F)(F)F)cc1)c1ncsc1S(=O)(=O)c1ccc(Cl)cc1 [JMX0521, 5-((4-Chlorophenyl)sulfonyl)-N-(4-(trifluoromethyl)phenyl)thiazole-4-carboxamide] | <0.5
11 | O=C(Nc1cc(F)cc(C(F)(F)F)c1)c1ncsc1S(=O)(=O)c1ccc(Cl)cc1 [JMX0522, 5-((4-Chlorophenyl)sulfonyl)-N-(3-fluoro-5-(trifluoromethyl)phenyl) thiazole-4-carboxamide] | 1.0
12 | O=C(Nc1ccc(C(F)(F)F)nc1)c1ncsc1S(=O)(=O)c1ccc(Cl)cc1 [JMX0523, 5-((4-Chlorophenyl)sulfonyl)-N-(6-(trifluoromethyl)pyridin-3-yl) thiazole-4-carboxamide] | <1.1
13 | O=C(Nc1ccc(F)nc1)c1ncsc1S(=O)(=O)c1ccc(Cl)cc1 [JMX0524, 5-((4-Chlorophenyl)sulfonyl)-N-(6-fluoropyridin-3-yl)thiazole-4-carboxamide] | <1.7
14 | O=C(Nc1ccc(F)cc1)c1ncsc1S(=O)(=O)c1ccc(Cl)cc1 [JMX0525, 5-((4-Chlorophenyl)sulfonyl)-N-(4-fluorophenyl)thiazole-4-carboxamide] | <3.1
15 | O=C(NCc1ccc(F)cc1)c1ncsc1S(=O)(=O)c1ccc(Cl)cc1 [JMX0541, 5-((4-Chlorophenyl)sulfonyl)-N-(4-fluorobenzyl)thiazole-4-carboxamide] | 1.1
16 | O=C(Nc1ccc(F)cc1)c1nnsc1Sc1ccc(Cl)cc1 [JMX0564, 5-((4-Chlorophenyl)thio)-N-(4-fluorophenyl)-1,2,3-thiadiazole-4-carboxamide] | <4.2
17 | O=C(Nc1ccc(F)cc1)c1nnsc1[S+]([O-])c1ccc(Cl)cc1 (stereo not drawn) [JMX0565-1, 5-((4-Chlorophenyl)sulfinyl)-N-(4-fluorophenyl)-1,2,3-thiadiazole-4-carboxamide] | 335
18 | O=C(Nc1ccc(F)cc1F)c1nnsc1Sc1ccc(Cl)cc1 [JMX0569, 5-((4-Chlorophenyl)thio)-N-(2,4-difluorophenyl)-1,2,3-thiadiazole-4-carboxamide] | <1.9
19 | O=C(Nc1ccc(Cl)cc1)c1nnsc1Sc1ccc(Cl)cc1 [JMX0570, N-(4-Chlorophenyl)-5-((4-chlorophenyl)thio)-1,2,3-thiadiazole-4-carboxamide] | <0.8
20 | O=C(Nc1ccc(Cl)cc1)c1nnsc1S(=O)(=O)c1ccc(Cl)cc1 [JMX0571, N-(4-Chlorophenyl)-5-((4-chlorophenyl)sulfonyl)-1,2,3-thiadiazole-4-carboxamide] | 86.5

Row | Molecule | TI, therapeutic index (CC50/MIC)
21 | O=C(NCc1ccc(F)cc1)c1nnsc1Sc1ccc(Cl)cc1 [JMX0573, 5-((4-Chlorophenyl)thio)-N-(4-fluorobenzyl)-1,2,3-thiadiazole-4-carboxamide] | <2.8
22 | O=C(NCc1ccc(F)cc1)c1nnsc1S(=O)(=O)c1ccc(Cl)cc1 [JMX0574, 5-((4-Chlorophenyl)sulfonyl)-N-(4-fluorobenzyl)-1,2,3-thiadiazole-4-carboxamide] | 27.5
23 | O=C(Nc1ccc(C(F)(F)F)cc1)c1nnsc1Sc1ccc(Cl)cc1 [JMX0575, 5-((4-Chlorophenyl)thio)-N-(4-(trifluoromethyl)phenyl)-1,2,3-thiadiazole-4-carboxamide] | <2.7
24 | O=C(Nc1ccc(C(F)(F)F)cc1)c1nnsc1S(=O)(=O)c1ccc(Cl)cc1 [JMX0576, 5-((4-Chlorophenyl)sulfonyl)-N-(4-(trifluoromethyl)phenyl)-1,2,3-thiadiazole-4-carboxamide] | 51.7
25 | O=C(Nc1ccc(F)cc1)c1nnc(Sc2ccc(Cl)cc2)s1 [JMX0584, 5-((4-chlorophenyl)thio)-N-(4-fluorophenyl)-1,3,4-thiadiazole-2-carboxamide] | <1.5
26 | O=C(Nc1ccc(F)cc1)c1nnc(S(=O)(=O)c2ccc(Cl)cc2)s1 [JMX0585-1, 5-((4-chlorophenyl)sulfonyl)-N-(4-fluorophenyl)-1,3,4-thiadiazole-2-carboxamide] | 8.3
27 | O=C(Nc1ccc(F)cc1)c1nnc([S+]([O-])c2ccc(Cl)cc2)s1 (stereo not drawn) [JMX0585-2, 5-((4-chlorophenyl)sulfinyl)-N-(4-fluorophenyl)-1,3,4-thiadiazole-2-carboxamide] | 294 and 293.7
28 | O=C(Nc1ccccc1F)c1nnsc1S(=O)(=O)c1ccc(Cl)cc1 [JMX872, 5-((4-Chlorophenyl)sulfonyl)-N-(2-fluorophenyl)-1,2,3-thiadiazole-4-carboxamide] | <3.2
29 | O=C(Nc1ccc(F)c(F)c1)c1nnsc1S(=O)(=O)c1ccc(Cl)cc1 [JMX876, 5-((4-Chlorophenyl)sulfonyl)-N-(3,4-difluorophenyl)-1,2,3-thiadiazole-4-carboxamide] | 52.1
30 | Cc1ccc(NC(=O)c2nnsc2S(=O)(=O)c2ccc(Cl)cc2)cc1 [JMX1033, 5-((4-chlorophenyl)sulfonyl)-N-(p-tolyl)-1,2,3-thiadiazole-4-carboxamide] | <3.1
31 | Cc1ccc(NC(=O)c2nnsc2[S+]([O-])c2ccc(Cl)cc2)cc1 (stereo not drawn) [JMX1033-2] | <1.5
32 | O=C(Nc1ccc(Br)cc1)c1nnsc1S(=O)(=O)c1ccc(Cl)cc1 [JMX1034, N-(4-Bromophenyl)-5-((4-chlorophenyl)sulfonyl)-1,2,3-thiadiazole-4-carboxamide] | <1.7
33 | O=C(Nc1ccccc1)c1nnsc1S(=O)(=O)c1ccc(Cl)cc1 [JMX1035, 5-((4-Chlorophenyl)sulfonyl)-N-phenyl-1,2,3-thiadiazole-4-carboxamide] | 13.5
34 | O=C(Nc1cc(F)cc(Cl)c1)c1nnsc1S(=O)(=O)c1ccc(Cl)cc1 [JMX1036, N-(3-Chloro-5-fluorophenyl)-5-((4-chlorophenyl)sulfonyl)-1,2,3-thiadiazole-4-carboxamide] | 45.4
35 | O=C(Nc1ccc(F)c(Cl)c1)c1nnsc1S(=O)(=O)c1ccc(Cl)cc1 [JMX1037, N-(3-Chloro-4-fluorophenyl)-5-((4-chlorophenyl)sulfonyl)-1,2,3-thiadiazole-4-carboxamide] | 2.5
36 | O=C(Nc1cc(F)cc(F)c1)c1nnsc1S(=O)(=O)c1ccc(Cl)cc1 [JMX1038, 5-((4-Chlorophenyl)sulfonyl)-N-(3,5-difluorophenyl)-1,2,3-thiadiazole-4-carboxamide] | <1.1
37 | O=C(Nc1cc(F)cc(C(F)(F)F)c1)c1nnsc1S(=O)(=O)c1ccc(Cl)cc1 [JMX1040, 5-((4-chlorophenyl)sulfonyl)-N-(3-fluoro-5-(trifluoromethyl)phenyl)-1,2,3-thiadiazole-4-carboxamide] | 18.1
38 | O=C(Nc1cc(C(F)(F)F)cc(C(F)(F)F)c1)c1nnsc1S(=O)(=O)c1ccc(Cl)cc1 [JMX1041, N-(3,5-Bis(trifluoromethyl)phenyl)-5-((4-chlorophenyl)sulfonyl)-1,2,3-thiadiazole-4-carboxamide] | <1.3
39 | O=C(Nc1ccc(C(F)(F)F)cc1Cl)c1nnsc1S(=O)(=O)c1ccc(Cl)cc1 [JMX1042, N-(2-Chloro-4-(trifluoromethyl)phenyl)-5-((4-chlorophenyl)sulfonyl)-1,2,3-thiadiazole-4-carboxamide] | <2.0
